The source of these data is patent publication US12490739B2, “Synergistically effective fungicide composition comprising choline phosphonate and at least one additional fungicide” (BELCHIM CROP PROTECTION NV, priority 2019, dated 2025).

The test system of this assay is Phytophthora infestans. Nature of the assay: Example 11 potted potato plants (Solanum tuberosum L. var. Bintje) infected with late blight, Belgium. To be noted: PESINC; 14 DA-A2; 1125 g a.c./ha.

Take cuprous oxide: the “CUP f.e. (%)” value was 46.8%.
